Measured values from several laboratories, pooled; numbers as filed in NIAID ChemDB.

All rows: toxicity to cultured cells; cell line: Huh7; endpoint: CC50

An empty or dashed field is not shown. CCn: concentration that lowers growth or viability of the cells by n%. Lines come from different laboratories, so protocols vary.

compound	read by	result
O=C(O)c1c(-c2ccc(F)cc2)nc(SCc2nc3ccccc3[nH]2)[nH]c1=O	MTT	545 µM
COc1ccc(-c2c(C3CCCCC3)c3sc(C(=O)O)cc3n2CC(=O)N(C)C2CCN(C(C)C)C2)cc1	-	>10 µM
CCOC(=O)CCc1ccccc1OP(=O)(N[C@@H](C)C(=O)OC(C)C)OC[C@H]1O[C@@H](n2cnc3c(N)nc(N)nc32)[C@](C)(O)[C@@H]1O	-	>10 µM
O=C(c1nn2c(C(F)(F)F)cc(C3CC3)cc2c1Cl)N1CCC2(OCC3(CC3)CO2)C(=O)C1	ATP	>50 µM
CCC[C@H](NC(=O)[C@@H]1C2CCCC2CN1C(=O)[C@@H](NC(=O)[C@@H](NC(=O)c1cnccn1)C(C)CC)C(C)(C)C)C(=O)C(=O)NC1CC1	-	>100 µM
CC(C)N1CC[C@@H](N2CCn3c(c(C4CCCCC4)c4sc(C(=O)O)cc43)-c3ccccc3C2)C1	-	>4.75 µM
ClCc1nc2ccccc2[nH]1	MTT	137 µM
CCCC(NC(=O)[C@@H]1C2CCCC2CN1C(=O)[C@@H](NC(=O)[C@@H](O)C(C)C)C(C)C)C(=O)C(=O)Nc1ccccc1	-	>100 µM
CC(C)OC(=O)[C@H](C)N[P@](=O)(OC[C@H]1O[C@@](C#N)(c2ccc3c(N)ncnn23)[C@](C)(O)[C@@H]1OC(=O)C(C)C)Oc1ccccc1	ATP	67 µM
O=C(/C=C/c1ccc(C(F)(F)F)cc1F)NO	MTS	12 µM
CCOC(=O)[C@H](C)NP(=O)(OC[C@H]1O[C@@H](n2cnc3c(N)nc(N)nc32)[C@](C)(O)[C@@H]1O)Oc1ccccc1CCC(=O)OC(C)C	-	>10 µM
CN(C)C(=O)c1ccc(-c2ccc(Cl)cc2)c(COc2ccc(-c3nc4cc(C(=O)O)ccc4n3C3CCCCC3)cc2)c1	-	25 µM
O=C(O)c1c(-c2ccccc2O)nc(NCc2nc3ccccc3[nH]2)[nH]c1=O	MTT	673 µM
CCCC(NC(=O)[C@@H]1C2CCCC2CN1C(=O)[C@@H](NC(=O)[C@@H](CC(C1CCCCC1)C1CCCCC1)NC(=O)c1cnccn1)C(C)(C)C)C(=O)C(=O)NC1CC1	-	45.5 µM
O=C(c1nn2c(C(F)(F)F)cc(C3CC3)cc2c1Cl)N1CCC2(CC1)OCC(O)CO2	ATP	>50 µM
COCn1c(-c2ccccc2)c(C2CCCCC2)c2sc(C(=O)O)c(CNCc3ccccc3)c21	-	>32.5 µM
CCC[C@H](NC(=O)[C@@H]1[C@H]2CCC[C@H]2CN1C(=O)[C@@H](NC(=O)[C@@H](NC(=O)c1cnccn1)C1CCCCC1)C(C)(C)C)C(=O)C(=O)NC1CC1	MTT	90 µM
CN(C)CCN1CCn2c(c(C3CCCCC3)c3sc(C(=O)O)cc32)-c2ccccc21	-	>5.25 µM
CCC[C@H](NC(=O)[C@@H]1C2CCCC2CN1C(=O)[C@@H](NC(=O)[C@@H](NC(=O)c1cnccn1)C1CCCCC1)C(C)(C)C)C(=O)C(=O)N[C@@H](C)CC	-	53.7 µM
O=C(c1nn2c(C(F)(F)F)cc(C3CC3)cc2c1Cl)N1CCC2(CC1)OCC1(CCC1)CO2	ATP	>50 µM
O=C(O)c1c(-c2ccco2)nc(NCc2nc3ccccc3[nH]2)[nH]c1=O	MTT	964 µM
COCn1c(-c2ccccc2)c(C2CCCCC2)c2sc(C(=O)O)cc21	-	>147.5 µM
CCOC(=O)CCc1ccccc1O[P@@](=O)(N[C@@H](C)C(=O)OC(C)C)OC[C@H]1O[C@@H](n2cnc3c(N)nc(N)nc32)[C@](C)(O)[C@@H]1O	-	>10 µM
O=C(O)c1cc2c(s1)c(C1CCCCC1)c(-c1ccccc1)n2Cc1ccccc1	-	>267.5 µM
N#Cc1c(-c2ccc(Cl)cc2)nc(NCc2nc3ccccc3[nH]2)[nH]c1=O	MTT	986 µM
CCOC(=O)CCc1ccccc1O[P@](=O)(N[C@@H](C)C(=O)OC(C)C)OC[C@H]1O[C@@H](n2cnc3c(N)nc(N)nc32)[C@](C)(O)[C@@H]1O	-	>10 µM
CN(C)Cc1c(C(=O)O)sc2c(C3CCCCC3)c(-c3ccc(Cl)cc3)n(CC(=O)N3CCOCC3)c12	-	>47.5 µM
O=C(O)c1ccc2c(c1)nc(-c1ccc(OCc3cc(Cl)ccc3-c3cccnc3)cc1)n2C1CCCCC1	-	>50 µM
CC(C)(C)NC(=O)N[C@H](C(=O)N1C[C@H]2[C@@H]([C@H]1C(=O)NC(CC1CCC1)C(=O)C(N)=O)C2(C)C)C(C)(C)C	MTT	>70 µM
N#Cc1c(-c2ccccc2)nc(NCc2nc3ccccc3[nH]2)[nH]c1=O	MTT	986 µM
C[C@@]1(O)[C@H](O)[C@@H](CO)O[C@H]1n1cnc2c(N)ncnc21	ATP	>90 µM
C[C@@]1(O)[C@H](O)[C@@H](CO)O[C@H]1n1cnc2c(N)ncnc21	MTS	54 µM
[2H][C@@](CCC)(NC(=O)[C@@H]1[C@H]2CCC[C@H]2CN1C(=O)[C@@H](NC(=O)[C@@H](NC(=O)c1cnccn1)C1CCCCC1)C(C)(C)C)C(=O)C(=O)NC1CC1	MTT	83 µM
N#Cc1c(-c2ccccc2)nc(SCc2nc3ccccc3[nH]2)[nH]c1=O	MTT	245 µM

Again, the opening 2 rows:

compound	read by	result
O=C(O)c1c(-c2ccc(F)cc2)nc(SCc2nc3ccccc3[nH]2)[nH]c1=O	MTT	545 µM
COc1ccc(-c2c(C3CCCCC3)c3sc(C(=O)O)cc3n2CC(=O)N(C)C2CCN(C(C)C)C2)cc1	-	>10 µM